Compound potency records, mixed from different reports. Data source: NIAID ChemDB in PubChem.

All rows: target-level tests; organism: HIV-1; target: Reverse transcriptase; endpoint: IC50

Blank or dashed fields: not listed here. Conditions beyond the fields shown may differ between rows. Two numbers with a dash give a range or band. ICn: concentration for n% inhibition.

| smiles | strain or isolate | method | mutations | result |
|---|---|---|---|---|
| Cc1cn([C@H]2C=C[C@@H](COP(=O)(O)OP(=O)(O)OP(=O)(O)O)O2)c(=O)[nH]c1=O | HXB2 | ELISA | - | 0.011 µM |
| Cc1csc(NC(=S)NC[C@H](C)c2ccccc2)n1 | - | - | - | 5.05 µM |
| CC(C)=CCOc1cc(NC(=S)c2ccoc2C)ccc1Cl | - | - | - | 3.2 µM |
| COC(=O)/C(C)=C/C=C/[C@@H](C)C1CC[C@@]2(C)[C@@H]3CC[C@H]4C(C)(C)C(=O)CC[C@]4(C)C3=CC[C@]12C | - | RT activity / radiometric | - | 107 µM |
| Cc1cnc([N+](=O)[O-])n1C(C)C(=O)Nc1cccc(O)c1 | - | RT activity / nucleotide incorporation | - | >100 µM |
| NC(N)=NCCC[C@H](NC(=O)[C@H](CCCN=C(N)N)NC(=O)[C@@H](N)CCCN=C(N)N)C(=O)O | - | ELISA | - | 24 µM |
| O=C(O)/C=C/c1ccc(O)c(O)c1 | - | RT activity / nucleotide incorporation / fluorescence | - | >100 µM |
| O=C(c1cc(O)c(O)c(O)c1)N1CCN(S(=O)(=O)c2ccccc2)CC1 | BH10 | ELISA / nucleotide incorporation | - | >50 µM |
| O=c1c(O)c[nH]c2c(O)ccc(O)c12 | - | RT activity / nucleotide incorporation / radiometric | - | 2.38 µM |
| COc1ccc2c(c1)N(C(=O)OC(C)C)[C@@H](CSC)C(=S)N2 | - | scintillation proximity / radiometric | RT-M230L | 1 µM |
| Cc1ccc(NC(=S)N[C@@H](C)c2cccc3ccccc23)nc1 | - | - | - | >100 µM |
| CN1CCN(C(=O)COc2ccc(NC(=O)CSc3nnnn3-c3ccc(C(C)(C)C)cc3Cl)c(Cl)c2)CC1 | - | PicoGreen / fluorescence | RT-K103 Y181C | <1 µM |
| c1ccc(C2SCc3nc4ccccc4n32)cc1 | - | - | RT-Y188L | >50 µM |
| Cc1cc(C)c(-n2nnnc2OCC(=O)Nc2ccccc2Cl)c(C)c1 | - | nucleotide incorporation / radiometric | - | <2 µM |
| Cc1ccc2c(c1)c(=O)c(C(=O)Nc1ccc(Cl)cc1)cn2[C@@H]1O[C@H](CO)[C@@H](O)[C@H]1O | HXB2 | nucleotide incorporation / absorbance | - | 3.6–5 µM |
| COc1ccc(C=O)c(O)c1 | - | RT activity / nucleotide incorporation / fluorescence | - | >100 µM |
| CC(=O)O[C@@H](/C=C(\C)C(=O)O)C[C@@H](C)[C@H]1CC[C@@]2(C)C3CC[C@H]4C(C)(C)C(=O)CC[C@]4(C)C3=CC[C@]12C | - | RT activity / radiometric | - | 24.84 µM |
| Cc1cn([C@H]2C=C[C@@H](COP(=O)(O)OP(=O)(O)OP(=O)(O)O)O2)c(=O)[nH]c1=O | - | radiometric | - | 10 µM |
| Cc1csc(NC(=S)N[C@@H](C)c2cccc3ccccc23)n1 | - | - | - | >100 µM |
| Cc1cn([C@H]2CC[C@@H](COP(=O)(O)OP(=O)(O)OP(=O)(O)O)O2)c(=O)[nH]c1=O | - | nucleotide incorporation / radiometric | RT-I135A | 0.08 µM |
| CC(=O)Oc1c(OC(C)=O)c2c3c(c(-c4c(C)cc5c(C(C)C)c(OC(C)=O)c(OC(C)=O)c6c5c4OC6OC(C)=O)c(C)cc3c1C(C)C)OC2OC(C)=O | LAV | HPLC | - | 2.3 µM |
| C[C@@H](CNC(=S)Nc1ccc(Br)cn1)c1ccccc1 | - | - | - | 0.42 µM |
| Nc1ncnc2c1ncn2[C@H]1CC[C@@H](COP(=O)(O)OP(=O)(O)OP(=O)(O)O)O1 | - | ELISA | RT-L74V T215Y K219Q | 35.9 µM |
| O=C(Nc1cc(-c2ccc3c(c2)CCCC3)[nH]n1)c1cccs1 | NL4-3 | RT activity / nucleotide incorporation / luminescence | Y181C | 0.28 µM |
| CC1=CC(C2OC(CN3C(=O)CS[C@@H]3C3OC(n4cc(C)c(=O)[nH]c4=O)[C@@H](O)[C@H]3O)[C@@H](O)[C@H]2O)C(=O)NC1=O | - | RT activity | - | 10.3 µM |
| Cc1cc(C)c(-n2nnnc2SCC(=O)Nc2ccccc2Cl)c(C)c1 | - | nucleotide incorporation / radiometric | - | <2 µM |
| CC1(C)C2CCC(COCCNC(=S)Nc3ccc(Br)cn3)C1C2 | - | nucleotide incorporation / scintillation proximity / radiometric | - | >100 µM |
| C/C=C/c1ccc2c(c1)[C@H](C)[C@@H](c1ccc(O)cc1)O2 | - | RT activity / radiometric | - | 323.2 µM |
| O=C(NC1CCN(S(=O)(=O)c2ccc(F)cc2)CC1)c1cc(O)c(O)c(O)c1 | BH10 | ELISA / nucleotide incorporation | - | >55.2 µM |
| Cc1cncn1CC(=O)Nc1cccc(O)c1 | - | RT activity / nucleotide incorporation | - | >100 µM |
| Nc1ccc(S(=O)(=O)N2CCN(C(=O)c3cc(O)c(O)c(O)c3)CC2)cc1 | BH10 | ELISA / nucleotide incorporation | - | >50 µM |
| Cc1c(C(=O)N(C)Cc2cccnc2)[nH]c(C(N)=O)c1S(=O)(=O)c1ccccc1 | NL4-3 | RT activity / nucleotide incorporation / luminescence | K103N | 1.2 µM |
| Cc1cc(C)cc([C@]23SCCN2C(=O)c2ccccc23)c1 | IIIB | ELISA | - | 0.09 µM |
| C/C(=C\C=C\[C@@H](C)C1CC[C@@]2(C)[C@@H]3CC[C@H]4C(C)(C)C(=O)CC[C@]4(C)[C@@]3(O)CC[C@]12C)C(=O)O | - | RT activity / radiometric | - | 102 µM |
| C[C@H](CNC(=S)Nc1ccc(Br)cn1)C1CCCCC1 | - | - | - | >100 µM |
| CC1=CC(C2OC(CN3C(=O)CS[C@H]3C3OC(n4cc(C)c(=O)[nH]c4=O)[C@@H](O)[C@H]3O)[C@@H](O)[C@H]2O)C(=O)NC1=O | - | RT activity | - | 35.7 µM |
| O=C(NC1CCNCC1)c1cc(O)c(O)c(O)c1 | BH10 | ELISA / nucleotide incorporation | - | >475.7 µM |
| Cc1cc(S(N)(=O)=O)ccc1NC(=O)COc1ccc(Cl)cc1C(=O)c1cc(Cl)cc(C#N)c1 | - | fluorescence | RT-E138K | 0.0042 µM |
| CC(=O)Nc1ccc(S(=O)(=O)N2CCN(C(=O)c3cc(O)c(O)c(O)c3)CC2)cc1 | BH10 | ELISA / nucleotide incorporation | - | >50 µM |
| CCc1c(Sc2ccccn2)n(COCc2ccccc2)c(=O)[nH]c1=O | RT-WT | RT activity | - | 0.07 µM |
| CC1=CC(C2O[C@H](CO)C(N3C(=O)CS[C@H]3C3OC(n4cc(C)c(=O)[nH]c4=O)[C@@H](O)[C@H]3O)[C@H]2O)C(=O)NC1=O | - | RT activity | - | 45.3 µM |
| Cc1ccc(-c2c(SCC(=O)Nc3ccc(-c4ccc(CC(=O)O)cc4)cc3Cl)cnn2C)c(Cl)c1 | - | scintillation proximity / radiometric | K103N + Y181C | 6.48 µM |
| Cc1cc2c(C(C)C)c(O)c(O)c(C=NCCS(=O)(=O)O)c2c(O)c1-c1c(C)cc2c(C(C)C)c(O)c(O)c(C=NCCS(=O)(=O)O)c2c1O | LAV | HPLC | - | 16 µM |
| O=C(Nc1cc(-c2ccc3c(c2)CCCC3)[nH]n1)c1ccc(-c2ccncc2)s1 | NL4-3 | RT activity / nucleotide incorporation / luminescence | Y181C | 0.22 µM |
| O=C1c2ccccc2C2(c3ccccc3)SCCN12 | IIIB | ELISA | RT-Y181C | 44 µM |
| Cc1cc(C)c(-n2nnnc2SCC(=O)Nc2ccc(C#N)cc2)c(C)c1 | - | nucleotide incorporation / radiometric | - | <2 µM |
| Cc1c(-c2c(C)c(=O)c3c(C(C)C)c(=O)c(=O)c(C=O)c-3c2=O)c(O)c2c(C=O)c(O)c(O)c(C(C)C)c2c1O | LAV | HPLC | - | 1.7 µM |
| CCc1c([Se]c2ccccc2)n(COCc2ccccc2)c(=O)[nH]c1=O | RT-WT | RT activity | - | 0.1 µM |
| CCc1ccc(N2CC(O)Cn3c2nc2c3c(=O)n(C)c(=O)n2C)cc1 | - | RT activity / RNase H / absorbance | - | >100 µM |
| CCc1c(Sc2ccccc2)n(COCc2ccccc2)c(=O)[nH]c1=O | - | RT activity | RT-L100I | 0.4 µM |
| O=C(CSc1nnnn1-c1cccc2ccccc12)Nc1ccccc1 | - | nucleotide incorporation / radiometric | - | <2 µM |
| Cc1csc(NC(=S)N[C@@H](C)c2ccccc2)n1 | - | - | - | >100 µM |
| COc1ccccc1C(=O)N1CCC(NC(=O)c2cc(O)c(O)c(O)c2)CC1 | BH10 | ELISA / nucleotide incorporation | - | 39.9 µM |
| Nc1ccn([C@H]2CC[C@@H](COP(=O)(O)OP(=O)(O)OP(=O)(O)O)O2)c(=O)n1 | HXB2 | ELISA | - | 4.8 µM |
| O=C(/C=C/c1ncccn1)Nc1cc(-c2ccc3c(c2)CCCC3)[nH]n1 | NL4-3 | RT activity / nucleotide incorporation / luminescence | Y181C | 0.45 µM |
| Cc1nc([N+](=O)[O-])cn1CC(=O)CNc1ccccc1 | - | RT activity / nucleotide incorporation | - | >100 µM |
| C[C@@H](CNC(=S)Nc1ccccn1)C1CCCCC1 | - | - | - | >100 µM |
| O=C(Nc1nnc(-c2ccc3c(c2)CCCC3)o1)C1=COCCO1 | NL4-3 | RT activity / nucleotide incorporation / luminescence | G190A/Y181C/K103N | 9.1 µM |
| Cc1ncc([N+](=O)[O-])n1CCOC(c1ccccc1)c1ccccc1S | - | RT activity / nucleotide incorporation | - | 12.3 µM |